A mixed list of measured activities; the numbers were collected in NIAID ChemDB.

All rows: growth or infection tests; organism: Rhinovirus; read-out: EC50

ECn: concentration that inhibits the pathogen or its effect by n%. Lines come from different laboratories, so protocols vary.

structure,strain or isolate,cells,read by,result
CN(C)c1nc(C(F)(F)F)nc2c1ncn2Cc1ccc(Cl)c(N)c1,Serotype 21,M-HELA,plaque count,>8 µM
Cc1c(-c2ccccc2)n(-c2cccc(F)c2)c2ccc(C(C)C)cc2c1=O,32/363,HELA-OHIO,cytopathic effect,0.02 µg/mL
Cc1cc(CCCCCOc2c(Cl)cc(C3=NCCO3)cc2Cl)on1,TYPE 11,HeLa,plaque count,0.017 µg/mL
CN(C)CCCNc1nnc2c3ccccc3n(C)c2n1,33342,WI-38,plaque count,4 µg/mL
CCSc1nc2ccc(OCCC3CCN(c4nnc(C)s4)CC3)cc2o1,Serotype 14,MRC-5,cytopathic effect,0.056 µg/mL
Cn1c2ccccc2c2n[nH]c(=S)nc21,33342,WI-38,plaque count,0.16 µg/mL
CCOC(=O)/C=C/[C@H](C[C@@H]1CCNC1=O)NC(=O)[C@@H](CC(=O)[C@@H](NC(=O)c1cc(C)on1)C(C)C)Cc1ccc(F)cc1,Isolate 42,OHIO HELA-I,cytopathic effect / visual reading,0.02 µg/mL
CO/N=C/c1ccc(OCCCCN2CCN(c3ccc(C)nn3)CC2)cc1,TYPE 1A,KB,cytopathic effect / visual reading,0.04 µg/mL
CSc1nsc(-c2ccc(OCCOc3ccccc3)cc2)c1C#N,Serotype 29 (group B),HELA-OHIO,cytopathic effect,>20 µM
CN(C)c1nc(C(F)(F)F)nc2c1ncn2Cc1ccccc1,Serotype 21,M-HELA,plaque count,>8 µM
Cn1c2ccccc2c2nnc(NCCC(C)(C)O)nc21,1059,WI-38,plaque count,40 µg/mL
CSc1nsc(-c2ccc(OCc3ccccc3)cc2)c1C#N,Serotype 70 (group A),HELA-OHIO,cytopathic effect,25 µM
CCCO/N=C/c1ccc(OCCC2CCN(c3ccc(Cl)nn3)CC2)cc1,TYPE 1A,KB,cytopathic effect / visual reading,<0.0032 µg/mL
CN(C)c1nc(C(F)(F)F)nc2c1ncn2Cc1ccc(Br)cc1,Serotype 13,M-HELA,plaque count,>8 µM
CCOC(=O)c1ccc(OCCC2CCN(c3ccc(C)nn3)CC2)cc1,Serotype 5,WI-38,cytopathic effect,<0.1 µg/mL
CCOC(=O)c1ccc(OCCC2CCN(c3ccc(C)nn3)CC2)cc1,Serotype 51 (group B),HELA-OHIO,cytopathic effect,0.01 µM
CCOc1nc2ccc(OCCC3CCN(c4ccc(C)nn4)CC3)cc2s1,Serotype 2,MRC-5,cytopathic effect,0.007 µg/mL
C=CCO/N=C/c1ccc(OCCCCN2CCN(c3ccc(Cl)nn3)CC2)cc1,TYPE 1A,KB,cytopathic effect / visual reading,0.02 µg/mL
CCOC(=O)c1ccc(OCCCCOc2ccc(-c3snc(SC)c3C#N)cc2)cc1,Serotype 59 (group B),HELA-OHIO,cytopathic effect,>2 µM
CCCn1oc2cc(OCCC3CCN(c4ccc(C)nn4)CC3)ccc2c1=O,Serotype 2,MRC-5,cytopathic effect,0.133 µg/mL
CN(C)c1nc(C(F)(F)F)nc2c1ncn2Cc1ccc(S(C)(=O)=O)cc1,Serotype 2,M-HELA,plaque count,>8 µM
CSc1nsc(-c2ccc(OCCCOc3ccc(C#N)cc3)cc2)c1C#N,Serotype 70 (group A),HELA-OHIO,cytopathic effect,>2 µM
CN(C)c1nc(C(F)(F)F)nc2c1ncn2Cc1ccc([N+](=O)[O-])cc1,Serotype 31,M-HELA,plaque count,>8 µM
CSc1nsc(-c2ccc(OC(C)(C)C)cc2)c1C#N,Serotype 45 (group A),HELA-OHIO,cytopathic effect,>40 µM
CCc1nc2ccc(OCCC3CCN(c4ccc(C)nn4)CC3)cc2o1,Serotype 1A,MRC-5,cytopathic effect,0.06 µg/mL
COc1ccc(-c2snc(SC)c2C#N)cc1,Serotype 63 (group B),HELA-OHIO,cytopathic effect,>12 µM
COc1nc2ccc(OCCC3CCN(c4ccc(C)nn4)CC3)cc2s1,Serotype 14,MRC-5,cytopathic effect,0.006 µg/mL
CCn1c2c(c(=O)c3cc(C(C)C)ccc31)Cc1ccccc1-2,33/1200,HELA-OHIO,cytopathic effect,0.2 µg/mL
Cc1ccc(Cn2cnc3c(N(C)c4ccccc4)nc(C(F)(F)F)nc32)cc1,Serotype 5,M-HELA,plaque count,>8 µM
CCOc1nc2ccc(OCCCC3CCN(c4ccc(Cl)nn4)CC3)cc2o1,Serotype 14,MRC-5,cytopathic effect,0.01 µg/mL
Cc1ccccc1Cn1cnc2c(N(C)C)nc(C(F)(F)F)nc21,Serotype 2,M-HELA,plaque count,>8 µM
Cn1c2ccccc2c2nnc(NCCCCO)nc21,2060,WI-38,plaque count,45 µg/mL
C=CCO/N=C/c1ccc(OCCC2CCN(c3ccc(C)nn3)CC2)c(C)c1,TYPE 1A,KB,cytopathic effect / visual reading,<0.003 µg/mL
CSc1nsc(-c2ccc(OCCCOc3ccccc3)cc2)c1C#N,Serotype 39 (group B),HELA-OHIO,cytopathic effect,3.75 µM
Cn1c2ccccc2c2nnc(NCCCCCCO)nc21,33342,WI-38,plaque count,6 µg/mL
CCOC(=O)c1ccc(OCCC2CCN(c3ccc(C)nn3)CC2)cc1,FO 1-3774 (ICAM-1 receptor group 54),KB,neutral red,0.108 µM
CSc1nsc(-c2ccc(OCCCCOc3ccccc3)cc2)c1C#N,Serotype 85 (group B),HELA-OHIO,cytopathic effect,>20 µM
Cn1c2ccccc2c2nnc(NCC(C)(C)CO)nc21,1059,WI-38,plaque count,20 µg/mL
Cc1c(-c2ccccc2)n(-c2ccc(F)cc2)c2ccc(C(C)C)cc2c1=O,TYPE 89/41617-GALLO,HELA-OHIO,cytopathic effect,0.011 µg/mL
CCOc1nc2cc(OCCC3CCN(c4ccc(C)nn4)CC3)ccc2s1,Serotype 2,MRC-5,cytopathic effect,0.104 µg/mL
Fc1cccc(Cn2cnc3c(Nc4cccc(F)c4)nc(C(F)(F)F)nc32)c1,Serotype 31,M-HELA,plaque count,5.4 µM
Cn1c2ccccc2c2nnc(Nc3ccc(O)cc3)nc21,1059,WI-38,plaque count,20 µg/mL
CN(C)c1nc(C(F)(F)F)nc2c1ncn2Cc1ccc(Cl)cc1Cl,Serotype 21,M-HELA,plaque count,>8 µM
CSc1nsc(-c2ccc(OCc3ccccc3)cc2)c1C#N,Serotype 14 (group A),HELA-OHIO,cytopathic effect,25 µM
CCOc1nc2ccc(OCCC3CCN(c4ccc(Cl)nn4)CC3)cc2o1,Serotype 2,MRC-5,cytopathic effect,0.004 µg/mL

Again, the opening 6 rows:

structure,strain or isolate,cells,read by,result
CN(C)c1nc(C(F)(F)F)nc2c1ncn2Cc1ccc(Cl)c(N)c1,Serotype 21,M-HELA,plaque count,>8 µM
Cc1c(-c2ccccc2)n(-c2cccc(F)c2)c2ccc(C(C)C)cc2c1=O,32/363,HELA-OHIO,cytopathic effect,0.02 µg/mL
Cc1cc(CCCCCOc2c(Cl)cc(C3=NCCO3)cc2Cl)on1,TYPE 11,HeLa,plaque count,0.017 µg/mL
CN(C)CCCNc1nnc2c3ccccc3n(C)c2n1,33342,WI-38,plaque count,4 µg/mL
CCSc1nc2ccc(OCCC3CCN(c4nnc(C)s4)CC3)cc2o1,Serotype 14,MRC-5,cytopathic effect,0.056 µg/mL
Cn1c2ccccc2c2n[nH]c(=S)nc21,33342,WI-38,plaque count,0.16 µg/mL